{"source": "patent US9499601B2", "about": "“Molecular probe for sphingolipids” (Agency for Science, Technology and Research, priority 2006, dated 2016)", "tested_on": "plasma membrane of SH-SY5Y neuroblastoma cells", "assay": "Fluorescence Correlation Spectroscopy (FCS) diffusion time at the plasma membrane", "format": "cell-based, human", "details": "untreated cells", "note": "Some results come without the dose or concentration used."}
{"substance": "CtxB-Alexa594", "values": [{"measurement": "distribution of τDs (main range)", "value": "> 30", "unit": "ms"}]}
